The entries are a selection whose mix differs from that of the whole data set. Activity calls are given as the source filed them.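 The calls were made as follows: active = growth inhibition at or above a cutoff equal to the mean over every tested compound plus 3 SD (cut at about 60% in these data); inactive = the rest.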

This assay can be described thus: E. coli ΔtolC antibacterial growth inhibition – strain BW25113 ΔtolC::kan, 384-well, primary screen (AID 573).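 Also: growth measured after 20 h incubation at 37 °C.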 The note with it: E. coli BW25113 tolC mutant growth, OD615; stronger effect = higher value; screened at 10 µM (by protocol). In short, it runs like this: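 Material: E. coli BW25113 ΔtolC::kan, tolC deletion mutant strain. Measure: percent growth inhibition. Schedule: 37 °C, 20 h exposure. Doses: single-point testing at 10 µM. Signal: A615 absorbance measurement. Buffer or medium: kanamycin-containing LB broth (50 µg/mL).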
`CCN(CC)CC(O)COC(=O)C(O)(c1ccccc1)C1CCCCC1` (stereo not drawn): the growth inhibition is inactive: 12.4%.

For the compound `COc1ccccc1OP(C)(=O)Nc1c(C)n(C)n(-c2ccccc2)c1=O` (stereo not drawn), the growth inhibition is inactive: -6.22%. As for `CP(=O)(Oc1ccccc1)N1CCOC1=O` (stereo not drawn), the growth inhibition is inactive: -12.7%. Regarding `Cc1nc2ccc3ccccc3c2o1.O=[N+]([O-])c1cc([N+](=O)[O-])c(O)c([N+](=O)[O-])c1`, the growth inhibition is inactive: 9.03%. Under `COc1ccccc1OP(C)(=O)Nc1ccc(C)c(C)c1` (stereo not drawn) stands inactive: 3.2%. Under `CP(=O)(Nc1ccccn1)Oc1ccccc1` (stereo not drawn) stands inactive: -15.4%. Under `CP(=O)(Nc1ccccc1F)Oc1ccccc1` (stereo not drawn) stands inactive: -7.38%. With `CN(C)CCOC(=O)C(O)(c1ccccc1)C1CCCCC1` (stereo not drawn), the growth inhibition is inactive: -10.1%. The value for `CP(=O)(Nc1ccc2c(c1)OCCO2)Oc1ccccc1` (stereo not drawn) was inactive: 1.9%. With `Cc1ccccc1NP(C)(=O)Nc1ccccc1C`, the growth inhibition was inactive: -25%. For the compound `CCOP(C)(=S)SCC(=O)NC(C)(CC)C(=O)O` (stereo not drawn), the growth inhibition is inactive: -15.3%.

For the compound `Cc1nc2ccc3ccccc3c2s1.O=[N+]([O-])c1cc([N+](=O)[O-])c(O)c([N+](=O)[O-])c1`, the growth inhibition is inactive: 6.93%. Consider `Cc1ccc(C)c(NP(C)(=O)Oc2ccccc2)c1` (stereo not drawn), for which the growth inhibition was inactive: 0.31%. Take `COc1ccccc1OP(C)(=O)Nc1ccc(C)cc1` (stereo not drawn): the growth inhibition was inactive: -27%. Consider `Cc1ccc(NP(C)(=O)Oc2ccccc2)c(C)c1` (stereo not drawn), for which the growth inhibition was inactive: 6.56%. Under `CP(=S)(Nn1cnnc1)Oc1ccccc1` (stereo not drawn) stands inactive: -19.4%.

As for `CCOP(C)(=S)SCC(=O)NC(C)C(=O)O` (stereo not drawn), the growth inhibition was inactive: -16.5%.

Turning to `CP(=O)(NC(=O)Nc1ccccc1)Oc1ccccc1` (stereo not drawn), the growth inhibition was inactive: 5.95%.

These data come from PubChem BioAssay AID573 (SRMLSC, 2007).
